Compound potency records, mixed from different reports. Data source: NIAID ChemDB in PubChem.

All rows: toxicity to cultured cells; read-out: CC50

Blank or dashed fields: not listed here.

compound	cells	method	value
Cc1ccc(NC(=O)NCCc2ccc3c(n2)NCCC3)cc1F	PBMC	-	2.5 µM
Nc1cc(=O)n(O)c2ncccc12	HeLa	-	<100 µM
O=C(C(=O)N1CCN(C(=O)c2ccccc2)CC1)c1c[nH]c2c(N3CCOCC3)ncc(F)c12	HeLa	trypan blue	>100 µM
O=C(Nc1ccc2c(c1)OCO2)c1cc(-c2cccs2)nc2ccccc12	RAJI	-	>20 µM
O=C(NCCc1ccc2c(n1)NCCC2)NCc1ccc(Cl)nc1	PBMC	-	50 µM
COc1cnc(-n2nccn2)c2[nH]cc(C(=O)C(=O)N3CCN(C(=O)c4ccccc4)[C@H](C)C3)c12	HeLa	trypan blue	>100 µM
COc1cccc(OC)c1NC(=O)NCCc1ccc2c(n1)NCCC2	PBMC	-	3.03 µM
O=c1c(Cc2ccccc2)c(O)c2cc(-c3ccccc3)cnc2n1O	HeLa	-	<100 µM
O=C(NCc1ccccc1)c1ccc(-c2ccc3c(c2)OCO3)cc1	RAJI	-	>20 µM
COc1cc(NC(=O)NCCc2ccc3c(n2)NCCC3)cc(OC)c1	PBMC	-	1.1 µM
O=c1cc(NC2CCN(Cc3ccccc3)CC2)c2cccnc2n1O	HeLa	-	<100 µM
CC(C)N(Cc1cccc(OCCCCCC(=O)OC(=O)O)c1)C(=O)c1ccc(-c2cccc(Br)c2)cc1	HE293	-	>20 µM
NC(=S)Nc1cccc(OCCCCCOc2ccc(-c3ccc(Br)cc3)cc2)c1	Ava5-EG(delta4AB)SEAP	MTS	>1 µM
Cc1cc(Cl)ncc1NC(=O)NCCc1ccc2c(n1)NCCC2	PBMC	-	50 µM
NC(=O)c1cccc(-c2cc(=O)n(O)c3ncccc23)c1	HeLa	-	<100 µM
CCOC(=O)CNC(=O)NCCc1ccc2c(n1)NCCC2	PBMC	-	50 µM
O=c1c(-c2cccc(F)c2)c(O)c2cccnc2n1O	HeLa	-	<100 µM
O=C(NCCc1cccc(-n2ccnc2)n1)Nc1cccc(C(F)(F)F)c1	PBMC	-	10.2 µM
NC(=S)Nc1cccc(NCCCCc2ccccc2)c1	Ava5-EG(delta4AB)SEAP	MTS	>1 µM
CCOC(=O)CCCCCOc1cccc(CN(C(=O)c2ccc(-c3ccc4c(c3)OCCO4)cc2)C(C)C)c1	BJ	-	>20 µM
FC(F)(F)Oc1ccc(CNC(=S)NCCc2ccc3c(n2)NCCC3)cc1	PBMC	-	0.52 µM
CCCCCCCCNC(=S)Nc1ccc2c(c1)Cc1cc(Br)ccc1-2	Ava5-EG(delta4AB)SEAP	MTS	>1 µM
O=c1c(-c2ccccc2)c(O)c2cc(/C=C/c3ccccc3)cnc2n1O	HeLa	-	<100 µM
NC(=S)Nc1cccc(OCCCCCOc2ccc(-c3ccsc3)cc2)c1	Ava5-EG(delta4AB)SEAP	MTS	>1 µM
COc1cc2c(cc1OC)C(CC1(C)OCCO1)=NCC2	HEK 293	-	<7.5 µM
COc1cnc(-c2cnc(NC(C)=O)s2)c2[nH]cc(C(=O)C(=O)N3CCN(C(=O)c4ccccc4)CC3)c12	HeLa	trypan blue	>100 µM
O=C(NCc1ccccc1)c1cnc2c(c1)c(O)c(C(=O)NCc1ccccc1)c(=O)n2O	HeLa	-	<100 µM
NC(=S)Nc1cccc(NCCCCCCc2ccccc2)c1	Ava5-EG(delta4AB)SEAP	MTS	>1 µM
C[C@@H]1CN(C(=O)C(=O)c2c[nH]c3c(-n4nccn4)ccnc23)CCN1C(=O)c1ccccc1	HeLa	trypan blue	>100 µM
CCOC(=O)c1c(O)c2cc(-c3cccnc3)cnc2n(O)c1=O	HeLa	-	<100 µM
O=C(NCC1CCc2ccccc2N1)Nc1ccc(Cl)cc1	PBMC	-	12.4 µM
CCCN(CCC)c1ccc2c(c1)Cc1cc(NC(N)=S)ccc1-2	Ava5-EG(delta4AB)SEAP	MTS	>1 µM
CC(C)COc1cccc(-c2ccc(C(=O)N(Cc3cccc(OCCCCCC(=O)OC(=O)O)c3)C(C)C)cc2)c1	HEK 293	-	>20 µM

The last 2 rows once more:

CCCN(CCC)c1ccc2c(c1)Cc1cc(NC(N)=S)ccc1-2 ; cells: Ava5-EG(delta4AB)SEAP ; method: MTS ; value: >1 µM
CC(C)COc1cccc(-c2ccc(C(=O)N(Cc3cccc(OCCCCCC(=O)OC(=O)O)c3)C(C)C)cc2)c1 ; cells: HEK 293 ; value: >20 µM

Rows are shuffled and stem from different studies. CCn is the concentration with n% toxicity to the cells.